Measurements published in article PMC11253607, “A conserved inhibitory interdomain interaction regulates DNA-binding activities of hybrid two-component systems in Bacteroides” (mBio, 2024).
Positions count from the first letter of the chain named. Where a protein sequence is shown, tags need not be part of it. For at least one entry, the source does not settle the construct or the ends of the probe. For part of these data: At least one verdict was read from the data and is not stated in words by the source.

How the values were obtained:
Test in all cases: EMSA
[1] = target: T1, BT4663-RRAD C1174A,H1175D (Bacteroides thetaiotaomicron VPI 5482) (UniProt Q89YR8); details: phosphorylated with 50 mM PAM; 50 mM Tris pH 7.6, 200 mM NaCl, 2.5% glycerol, 2 mM MgCl2, 0.5 mM DTT, 0.1 ug/uL BSA, 10 ng/uL salmon sperm DNA, ~2.5 ng/uL DNA; 30 min, temperature not stated; recombinant protein; residues 1097-1353; protein details: C-terminal GSGAGGHHHHHHG; label: 5'-FAM on strand 1
T1 sequence (looked up): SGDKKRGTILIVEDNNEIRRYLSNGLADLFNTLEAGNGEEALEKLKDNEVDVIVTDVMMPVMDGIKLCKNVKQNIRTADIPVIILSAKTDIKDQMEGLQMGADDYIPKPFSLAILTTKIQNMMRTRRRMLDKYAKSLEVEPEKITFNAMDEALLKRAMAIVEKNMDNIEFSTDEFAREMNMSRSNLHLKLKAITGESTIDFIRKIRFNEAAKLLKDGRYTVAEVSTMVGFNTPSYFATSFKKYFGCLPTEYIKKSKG

[2] = target: T2, BT4663-RRAG C1174A,H1175G (Bacteroides thetaiotaomicron VPI 5482) (UniProt Q89YR8); details: phosphorylated with 50 mM PAM; 50 mM Tris pH 7.6, 200 mM NaCl, 2.5% glycerol, 2 mM MgCl2, 0.5 mM DTT, 0.1 ug/uL BSA, 10 ng/uL salmon sperm DNA, ~2.5 ng/uL DNA; 30 min, temperature not stated; recombinant protein; residues 1097-1353; protein details: C-terminal GSGAGGHHHHHHG; label: 5'-FAM on strand 1
T2 sequence (looked up): T1 sequence (looked up) with D79G

[3] = target: T3, BT4124-RRAD C1262A,H1263D (Bacteroides thetaiotaomicron VPI 5482) (UniProt Q8A097); details: 50 mM Tris pH 7.6, 200 mM NaCl, 2.5% glycerol, 2 mM MgCl2, 0.5 mM DTT, 0.1 ug/uL BSA, 10 ng/uL salmon sperm DNA, ~2.5 ng/uL DNA, 30 min, temperature not stated, recombinant protein, residues 1186-1450, protein details: C-terminal GSGAGGHHHHHHG, label: 5'-FAM on strand 1
T3 sequence (looked up): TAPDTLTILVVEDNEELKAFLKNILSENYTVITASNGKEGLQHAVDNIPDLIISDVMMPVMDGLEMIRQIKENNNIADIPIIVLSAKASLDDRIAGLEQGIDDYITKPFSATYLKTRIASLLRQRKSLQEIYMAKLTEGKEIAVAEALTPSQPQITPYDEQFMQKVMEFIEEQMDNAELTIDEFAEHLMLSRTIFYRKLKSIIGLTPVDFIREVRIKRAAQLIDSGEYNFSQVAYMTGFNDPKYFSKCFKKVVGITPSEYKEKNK

[4] = target: T4, BT4124-RRAG C1262A,H1263G (Bacteroides thetaiotaomicron VPI 5482) (UniProt Q8A097); details: 50 mM Tris pH 7.6, 200 mM NaCl, 2.5% glycerol, 2 mM MgCl2, 0.5 mM DTT, 0.1 ug/uL BSA, 10 ng/uL salmon sperm DNA, ~2.5 ng/uL DNA, 30 min, temperature not stated, recombinant protein, residues 1186-1450, protein details: C-terminal GSGAGGHHHHHHG, label: 5'-FAM on strand 1
T4 sequence (looked up): T3 sequence (looked up) with D78G

Measured: binding result

GATGGTAGTGTGGGGTCTCATGCCTAGGATACAGGAGATAAACAGCTTTTTTAAACAAAAACAACATATGTCTCAACAAATTTGATATCAAAAAAATCATTTTTGAACAAAGTATGAACAACCTAAATTAAAGAATCTAATTAATGAGGTTACATTTGCAACAGTAAAATAACACTTTTAATAATTATAAAACCTAATAAAGTATGAAGAACGAGACCGAAATTCAATAAGGAGG (double strand) [bt4662 promoter fragment]
binds: [1] | [2]

GATGGTAGTGTGGGGTCTCATGCCTCGTCTTTATTCATTTTATGCCGGAAAAACAAAAAATACTATCGTAAAAACAAATATTACACATCCCACAAGCCCCAAAAACATAATTTTGCACCAGTGAGAACTCTAAGAGTGGACACACTCGAATATTAATAATCTAATATAAAAGAACAAAAGATGCCTAAAGGAATGAAGAACGAGACCGAAATTCAATAAGGAGG (double strand) [bt4114 promoter fragment]
binds: [3]; phosphorylated with 50 mM PAM | [3]; unphosphorylated | [4]; phosphorylated with 50 mM PAM | [4]; unphosphorylated
